## Mutational interference map of HIV-1 RNA dimerization

From the data files of Ye et al. 2022, doi:10.1038/s41594-022-00746-2.

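Mutant RNA libraries with 1G, 2G or 3G starts, with or without cap, were folded at 37 °C for 30 min. High salt was 300 mM KCl and 5 mM MgCl2, low salt 40 mM KCl and 0.1 mM MgCl2; monomer and dimer were parted on a native gel. Kdimer compares mutation frequencies in monomer and dimer, corrected for sequencing errors.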

RNA: 5' end of the HIV-1 NL4-3 genome, made in vitro. Positions 1-437 read:
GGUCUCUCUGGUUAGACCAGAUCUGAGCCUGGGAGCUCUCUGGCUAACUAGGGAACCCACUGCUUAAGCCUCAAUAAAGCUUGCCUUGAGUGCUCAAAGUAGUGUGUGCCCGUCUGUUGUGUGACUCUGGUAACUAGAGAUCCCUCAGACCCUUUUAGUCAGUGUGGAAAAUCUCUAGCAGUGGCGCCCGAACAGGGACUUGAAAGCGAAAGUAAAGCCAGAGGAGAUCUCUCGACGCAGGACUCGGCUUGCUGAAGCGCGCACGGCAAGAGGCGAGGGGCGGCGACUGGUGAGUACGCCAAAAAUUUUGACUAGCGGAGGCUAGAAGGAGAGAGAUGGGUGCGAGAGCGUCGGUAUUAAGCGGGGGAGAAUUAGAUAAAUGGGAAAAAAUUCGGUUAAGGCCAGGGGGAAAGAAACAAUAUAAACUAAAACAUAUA

Values are log2 Kdimer, the median over the changes at each position: higher means that changes there hinder dimer formation, below 0 that they favour it.
One numbering serves 1G, 2G and 3G.
A position is written with its base.

position,2G uncapped low-salt,1G uncapped high-salt
G350,0.30,-0.01
U351,0.10,0.11
C352,-0.16,0.11
G353,0.28,0.00
G354,-0.47,-0.19
U355,0.00,0.13
A356,-0.12,0.07
U357,-0.01,0.15
U358,-0.08,0.04
A359,0.08,0.16
A360,-0.08,-0.09
G361,-0.07,0.06
C362,0.15,0.26
G363,0.28,0.30
G364,-0.08,0.01
G365,0.16,0.07
G366,0.26,0.19
G367,0.23,0.26
A368,0.10,0.18
G369,0.11,0.12
A370,0.14,0.07
A371,-0.27,-0.02
U372,-0.03,-0.01
U373,-0.06,0.01
A374,0.01,0.11
G375,-0.14,0.06
A376,0.06,0.03
U377,-0.26,-0.12
A378,0.08,-0.12
A379,0.06,-0.10
A380,-0.09,0.07
U381,-0.08,0.00
G382,0.19,-0.01
G383,0.19,0.13
G384,-0.12,-0.26
A385,-0.19,-0.14
A386,0.00,0.12
A387,-0.03,0.09
A388,0.09,0.06
A389,-0.10,0.07
A390,0.03,0.04
U391,0.05,0.06
U392,0.06,0.12
C393,0.03,0.02
G394,-0.02,0.10
G395,-0.29,0.06
U396,-0.08,0.14
U397,-0.14,0.02
A398,-0.01,0.04
A399,0.05,0.10
G400,-0.03,0.16
G401,0.00,0.12
C402,-0.25,0.02
C403,-0.29,0.11
A404,-0.04,0.12
G405,-0.05,-0.03
G406,-0.04,-0.11
G407,-0.02,0.00
G408,-0.01,0.04
G409,0.02,0.08
A410,0.03,0.00
A411,0.16,0.06
A412,0.02,0.03
G413,0.06,0.05
A414,0.01,-0.06
A415,-0.02,0.11
A416,0.07,0.13
C417,0.00,0.08
A418,-0.05,0.13
A419,-0.01,0.09
U420,-0.06,0.00
A421,0.05,0.08
U422,-0.04,0.07
A423,0.04,0.02